Results deposited as PubChem BioAssay AID624099 (ICCB-Longwood, 2012).

Test: 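Host factors E2 relies on to silence an HPV18 LCR reporter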 (primary screen)
Cells: human C33A cervical carcinoma cells (HPV-negative) stably expressing BPV1 E2 and an HPV18 LCR luciferase reporter
Reagent: siRNA pool against human genes, 40 nM
Timing: 72 h
Measurement: 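Per-well luciferase luminescence, z-scored on each plate against the plate mean and SD with control wells left out, then averaged across three replicate plates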
Reading the numbers: mean z-score and z-score: higher = stronger reporter signal, weaker E2 silencing
Call rule: 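Mean z ≥ 2 together with z ≥ 2 in two or more of the three replicates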
Here is a random part of about 21,000 reagents. 497 of them (2.4%) were called active. 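Higher z means weaker E2 silencing; only reporter increases were scored, and knock-downs that hurt cell survival may mask genuine repressor factors.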 No sequences are given here.

For MARCHF6, the values are mean z-score -0.72; z-score, replicate A = -0.73; z-score, replicate B = -0.65; z-score, replicate C = -0.79; inactive. PSMA4 gave mean z-score -0.28; z-score, replicate A = -0.79; z-score, replicate B = -0.09; z-score, replicate C = 0.03; inactive. Knock-down of NCR3LG1 resulted in: mean z-score -1.26; z-score, replicate A = -1.37; z-score, replicate B = -1.47; z-score, replicate C = -0.96; inactive. EIF3H scored mean z-score -0.39; z-score, replicate A = -0.43; z-score, replicate B = -0.3; z-score, replicate C = -0.44; inactive. After knock-down of GRIN3B, the screen gave mean z-score 1.37; z-score, replicate A = 1.29; z-score, replicate B = 1.73; z-score, replicate C = 1.11; inactive. For KDELR2, the values are mean z-score -0.43; z-score, replicate A = -0.52; z-score, replicate B = -0.32; z-score, replicate C = -0.43; inactive.

For IL36G the deposit lists mean z-score -0.16; z-score, replicate A = 0.1; z-score, replicate B = -0.29; z-score, replicate C = -0.28; inactive. ASPG gave mean z-score -0.26; z-score, replicate A = -0.44; z-score, replicate B = -0.15; z-score, replicate C = -0.19; inactive. With knock-down of BPIFA2, the screen gave mean z-score 1.06; z-score, replicate A = 0.85; z-score, replicate B = 1.29; z-score, replicate C = 1.03; inactive. OR51D1 gave mean z-score 0.01; z-score, replicate A = 0.19; z-score, replicate B = -0.17; z-score, replicate C = 0.01; inactive. GGT5 showed mean z-score -1.31; z-score, replicate A = -1.12; z-score, replicate B = -1.41; z-score, replicate C = -1.39; inactive. For OR1J4, the values are mean z-score -0.5; z-score, replicate A = -0.49; z-score, replicate B = -0.62; z-score, replicate C = -0.37; inactive.

Against SLC6A10P, the entry reads mean z-score -0.47; z-score, replicate A = -0.67; z-score, replicate B = -0.49; z-score, replicate C = -0.25; inactive. With knock-down of ATP8B2, the screen gave mean z-score 0.53; z-score, replicate A = 0.43; z-score, replicate B = 0.64; z-score, replicate C = 0.53; inactive. After knock-down of GAL, the record shows mean z-score 0.21; z-score, replicate A = 0.26; z-score, replicate B = 0.15; z-score, replicate C = 0.23; inactive. With knock-down of MRPL54, the record shows mean z-score 1.09; z-score, replicate A = 1.13; z-score, replicate B = 0.88; z-score, replicate C = 1.25; inactive. For MED20, the entry reads mean z-score 0.02; z-score, replicate A = 0.15; z-score, replicate B = 0.11; z-score, replicate C = -0.21; inactive. Silencing of POM121L12 came out at: mean z-score -0.83; z-score, replicate A = -0.74; z-score, replicate B = -1.06; z-score, replicate C = -0.7; inactive.

Knock-down of LRRK2 resulted in: mean z-score 0.07; z-score, replicate A = -0.37; z-score, replicate B = 0.35; z-score, replicate C = 0.23; inactive. After knock-down of TEKT3 the results were mean z-score 0.61; z-score, replicate A = 0.34; z-score, replicate B = 0.75; z-score, replicate C = 0.73; inactive. Silencing of LIPI came out at: mean z-score 0.42; z-score, replicate A = 0.7; z-score, replicate B = 0.28; z-score, replicate C = 0.28; inactive.

2 successive records already listed:
KDELR2 — mean z-score = -0.43; z-score, replicate A = -0.52; z-score, replicate B = -0.32; z-score, replicate C = -0.43; Outcome = inactive
IL36G — mean z-score = -0.16; z-score, replicate A = 0.1; z-score, replicate B = -0.29; z-score, replicate C = -0.28; Outcome = inactive
